In US20250333484A1:

Assays:
[1] = target: 364 aa long N-terminal probe of EBOV GP (Ebola virus variant Mayinga) (UniProt Q05320)
[2] = target: 364 aa long N-terminal probe of EBOV GP (Ebola virus variant Mayinga) (UniProt Q05320); remark: listed apart in the source

In the case of Fab114 (Fab of parental mAb114), the Kd [1] is reported as 0.148 nM and the Kd [2] is reported as 0.148 nM.

Like-named read-outs stand apart in the source and are kept apart here.
